## Percent effect of library compounds

Data taken from ChEMBL document CHEMBL3988442, “University of Dundee, Small-Polar-MMV Screening Library” (2021).

Mtb glucose medium: 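Growth of Mycobacterium tuberculosis over 3 days (7H9 medium with glucose and tyloxapol); the read-out is not stated. Tested at 500 µM. The record gives no direction; compounds that gave an IC50 in retests scored well above the rest, so higher reads as more growth inhibition. Of about 18,000 compounds tested this way, about 1,400 (7.9%) reached 50% or more in at least one test.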
Mtb cholesterol medium: 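Phenotypic screen: M. tuberculosis growth, cholesterol and DPPC medium, 4 days; the read-out is not stated. Compounds at 500 µM. The record gives no direction; compounds that gave an IC50 in retests scored well above the rest, so higher reads as more growth inhibition. Of about 18,000 compounds tested this way, about 900 (5%) reached 50% or more in at least one test.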

Results are given as percent effect.
How 0% and 100% were set is not recorded. Most values in the screen are low, and negative values occur.
This is part of a subset picked to be rich in strong results.
A dash means the value is not listed here; it may have been measured.

SMILES,Mtb glucose medium,Mtb cholesterol medium
COC(C)c1cccc(NCCCS(C)(=O)=O)c1 (stereo not given),-,13
CC(C)(C)OC(=O)N1CCCC1CN (stereo not given),69.27,-
COCC(NC(=O)Nc1ccccc1F)C(N)=O (stereo not given),-,13.49
CCNC(=O)C(C)Sc1nc(N)c2ccsc2n1 (stereo not given),32.13,11.7
CC(C)CNC(=O)C1CCCO1 (stereo not given),9.971,-
CNC(=O)[C@@H]1CN(C(=O)c2cc(C)n[nH]2)C[C@H]1COC,-6.858,-
Cc1cnc(N2CCCN(CCO)CC2)nc1C,-,6.196
CN(C)c1ncccc1CNC(=O)N1CCCC1,9.172,-
CC(C)n1cnnc1CNC(=O)Nc1ccccc1,4.77,-
NC(c1ccccc1)c1ccco1 (stereo not given),20.58,-
COC1CCN(CC(=O)N2CCCCC2)CC1,-,5.932
O=C(CCc1nnc(-c2ccsc2)o1)NC1=NCCS1,-,1.082
CCS(=O)(=O)NCC(=O)NCc1cc(C)c(F)c(C)c1,-,-7.245
OCc1csc(N2CCC3(CC2)OCCCC3O)n1 (stereo not given),-,-45.28
CC(=O)Nc1ccc(C(=O)N(C)Cc2cccs2)cc1,82.8,96.25
CC(O)C(=O)N(C)c1ccccc1 (stereo not given),7.566,-
O=C(COC(=O)c1ccccn1)Nc1ccccc1,65.34,95.64
CCCNCCc1ccccn1,-,7.218
CC(C)[C@@H](CO)NCc1ccc(F)c(C#N)c1,3.996,-
COCCC(C)(O)C(C)(C)CN (stereo not given),-,3.252
O=C(NC1CCCOc2ccccc21)c1ccncc1 (stereo not given),51.07,-
c1cncc(CN2CCC(N3CCCC3)CC2)c1,1.77,-
CSC(C)C(=O)N(CCC(N)=O)Cc1ccccc1 (stereo not given),17.23,-
COc1ccc(CN2C[C@H](O)[C@@H](N(C)C)C2)c(C)c1C,75.06,65.77
CCOc1ccc(Cl)cc1CNCCNCCO,30.99,20.1
CC(=O)CC1COCCN1S(=O)(=O)c1cccc(F)c1 (stereo not given),4.776,-
COC(=O)c1cn(C)nc1C,-,-13.02
Cc1ccc(NC(=O)N[C@@H]2CNCC[C@H]2O)cc1,17.84,-
OCC1CSc2ccccc2O1 (stereo not given),19.05,-
CNC(=O)NCCNc1ccccc1,-,9.649
CC(=O)N1CCc2cc(C(=O)C(C)O)ccc21 (stereo not given),2.342,-
CCN1CCCC(CNC(=O)Nc2cc(C)nn2C)C1 (stereo not given),9.065,-
NC(Cc1ccccn1)c1cccnc1 (stereo not given),-,-13.38
Cc1cc(=O)cc(C(=O)NCCc2cn[nH]c2)o1,-,0.2102
CNc1ccc(N)nc1,-1080,-
COC(=O)c1ccc(S(=O)(=O)N2CCOCC2)cc1,-12.08,-
Cc1nnc(SCCCNC(=O)CC2CCCN2C)s1 (stereo not given),-,0.1117
Cc1nn(C)cc1C(=O)N1C[C@@H](CO)[C@H](N(C)C)C1,-,2.191
OCCC1COCCN1 (stereo not given),-,1.242
COCC(C)NC(=O)c1cnn(C)c1 (stereo not given),-,35.43
COC(=O)CCn1cc(C(N)=O)cn1,-,-0.5961
O=S(=O)(c1ccc(Cl)s1)N1CCNCC1,28.52,-
COc1ccc(CSc2nnc(O)[nH]2)cc1Cl,26.76,-
CN(C)S(=O)(=O)c1ccc2[nH]c(=O)oc2c1,15.21,-
Cc1cccc(Cl)c1OCCN,55.44,29.28
CC(NS(C)(=O)=O)c1cccnc1 (stereo not given),6.611,-
Cc1cc(C)cc(OCCNC(=O)CSCC(N)=O)c1,55.72,34.94
CC(=O)NCCCN1CCN(c2ccccc2F)CC1,-,0.7338
CCC(=O)NCCCN1CCCCCC1,-36.33,-
NC(=O)c1cc(N2CCOCC2)nc2ccc(F)cc12,-,-14
C=C(C)CSc1nnnn1Cc1ccco1,70.81,74.03
CCNc1nc2c([nH]1)c(=O)n(C)c(=O)n2C,4.776,-
N[C@@H]1CC[C@@H]1NC(=O)Cc1c[nH]c2ccccc12,47.68,-
CN(CC(N)=O)S(=O)(=O)c1ccc2c(c1)OCCO2,3.874,-
CCc1nc2ccccc2n1CCN,15.53,-
CC1CN(C)CCN1C(=O)NCc1cccs1 (stereo not given),20.19,-
Cc1ccc(-c2cc(C(N)=O)[nH]n2)cc1C,-,-2.528
COCC(=O)NCCc1noc(-c2ccccc2)n1,27.63,-
NC1CCCN(S(=O)(=O)c2ccc(Br)cc2)C1 (stereo not given),42.12,-
Cc1nccn1CC1CCN(CC(O)CO)CC1 (stereo not given),-,4.607
COc1cc(CCC(=O)Nc2nnc[nH]2)cc(OC)c1,-3.659,-
c1coc(-c2ccncc2)c1,-,-10.24
CC(=O)NC1CCN(C(=O)CSC(C)(C)C)CC1,-,6.75
O=S(=O)(c1ccco1)N1CCOCc2ccccc21,62.91,-
CC(=O)c1ccc(Cl)c(S(=O)(=O)NC(CN)C2CC2)c1 (stereo not given),50.99,-
COCCCNCc1cccc(OC)c1,13.13,9.566
Cc1nc(C)c(C(=O)N[C@@H]2CCNC[C@H]2O)s1,-,-2.928
CC1=CC[C@@H]2CN(C(=O)c3n[nH]c(N)c3Cl)C[C@@H]2C1,37.11,-
Cc1cc(C(=O)NN2CCOCC2)c(C)o1,5.104,-
O=C1CC2(CCc3ccccc32)CN1 (stereo not given),47.07,-
Cc1cc(CN(C)C(=O)C2CCCCCN2C)no1 (stereo not given),10.4,-
COc1ccc(OC2CCNCC2)nc1,-2.165,4.844
CCOc1cc(C(=O)OCC(=O)NC)cc(Br)c1OC,-22.14,-
Cc1nccn1C1CCCNC1 (stereo not given),7.721,-
CC(C)CC(O)CNC(=O)c1cc(F)ccc1F (stereo not given),72.78,-
NC(=O)c1ncsc1Cl,3.827,-
Cc1cnc(CNC(=O)Cn2nc(C)c(C)c2C)cn1,21.32,-
COc1ccccc1CCNC(=O)c1ccnn1C,47.32,-
CNC(=O)C1CC(=O)N(c2cccc(Cl)c2)C1 (stereo not given),-,4.595
CCNC(=O)CN1CCC(Cn2ccnc2C)CC1,3.216,-
CC(C)c1nc(NCc2cccnc2)n(C)n1,-11.56,-7.588
CS(=O)(=O)N1CCC(Cc2ccccc2)C1 (stereo not given),63.39,61.42
CSCc1cccc(C(=O)NC2CCCCNC2=O)c1 (stereo not given),-,-16.83
CCN(Cc1nc(COC)no1)C(=O)c1ccoc1C,-,-10.12
NC(=O)C1(CNCc2cccc(Br)c2)CCOCC1,22.87,-
OCCCn1nnc(-c2ccccc2)n1,66.21,57.87
O=C(CCc1cc(Cl)no1)N1CCOC(C(F)(F)F)C1 (stereo not given),63.4,58.95

Once more, the final 10:

Result for COc1ccccc1CCNC(=O)c1ccnn1C was Mtb glucose medium: 47.32%.
Result for CNC(=O)C1CC(=O)N(c2cccc(Cl)c2)C1 (stereo not given) was Mtb cholesterol medium: 4.595%.
Result for CCNC(=O)CN1CCC(Cn2ccnc2C)CC1 was Mtb glucose medium: 3.216%.
Result for CC(C)c1nc(NCc2cccnc2)n(C)n1 was Mtb glucose medium: -11.56%; Mtb cholesterol medium: -7.588%.
Result for CS(=O)(=O)N1CCC(Cc2ccccc2)C1 (stereo not given) was Mtb glucose medium: 63.39%; Mtb cholesterol medium: 61.42%.
Result for CSCc1cccc(C(=O)NC2CCCCNC2=O)c1 (stereo not given) was Mtb cholesterol medium: -16.83%.
Result for CCN(Cc1nc(COC)no1)C(=O)c1ccoc1C was Mtb cholesterol medium: -10.12%.
Result for NC(=O)C1(CNCc2cccc(Br)c2)CCOCC1 was Mtb glucose medium: 22.87%.
Result for OCCCn1nnc(-c2ccccc2)n1 was Mtb glucose medium: 66.21%; Mtb cholesterol medium: 57.87%.
Result for O=C(CCc1cc(Cl)no1)N1CCOC(C(F)(F)F)C1 (stereo not given) was Mtb glucose medium: 63.4%; Mtb cholesterol medium: 58.95%.